Measurements as given in the supplement of paper PMC9931576.
Human monoclonal antibodies against the spike receptor-binding domain (heavy:light variable regions). IC50 against pseudoviruses bearing the spike of naturally observed variants; lower = stronger; >10 µg/ml means not reached at the top dose. No active / inactive call. The stated detection limit is 0.0005 µg/ml; values near or below 0.001 µg/ml lie at the floor of the assay.

B1: BD56-1097 (protein)
chain 1: QVQLVQSGAEVKKPGSSVTVSCEASGGTFGSYAISWVRQAPGQGLEWMGRVIPIFGISNHAQKFQDRVTITADKSTSTAYMELSSLRPEDTAVYFCARDGPEGPDYDYGGTSPYYYYMDVWGKGTTVTVSS
chain 2: QSVLTQPPSVSGTPGQRVTISCSGGSSNIGSNTVNWYQQLPGTAPKLLIYSNYQRPSGVPDRFSGSKSGASASLAISGLQSEDEADYYCSLWDDTLDGWVFGGGTKLTVL
B2: BD58-0571 (protein)
chain 1: QLQLQESGPGLVKPSETLSLTCTVSGGSISSSSYYWGWIRQPPGKGLEWIGSFYHSGSTYYNPSLQSRVTISEDTSRNQLSLKVTSVTAADTAVYYCARQRFGYCTGGVCHGDWYFDLWGRGTLVTVSS
chain 2: DIQMTQSPSTLSASVGDRVTITCRASQSFSSWLAWYQQKPGKAPKLLIYKASNLESGVPSRFSGSGSGTEFTLTISSLQPDDLATYYCQQYSTYPWTFGQGTKVEIK
B3: BD58-0572 (protein)
chain 1: QVQLQESGPGLVKPSETLSLTCTVSGGSTSRYYWHWIRQPPGKGLEWIGYIYYSGTTNYNPSLKSRATISVDTSKNQFSLKVNSMTAVDTAVYYCARSVGSSWYGDTYYHFAMDVWGQGTTVTVSS
chain 2: EIVMTQSPATLSVSPGERATLSCRASQSVSNNLAWYQQKPGQAPRLLIYGASTRATGIPARFSGSGSGTEFTLTISSLQSEDFAVYFCQHYNNWPPAITFGPGTKVDIK
B4: BD58-0575 (protein)
chain 1: QVQLVESGGGVVQPGRSLRLSCAASGFTFRNYGLHWVRQAPGKGLEWVAVISYDGENKYYVESVKGRFTISRDNSKNTLFLQMNSLRGDDTAVYYCAKGAGPYCSGASCYDTQAFDYWGQGTLVTVSS
chain 2: SYVLTQPPSVSVAPGKTASITCGGNNIQSKSVHWYQQKPGQAPVLVIYYDIDRPSGIPERFSGSKSGNTATLTISRVEAGDEADYYCQVWDSSSDHYVFGTGTRVAVL
B5: BD58-0578 (protein)
chain 1: EVLLLESGGDLVQPGGSLRLSCAASGFTFTNYAMTWVRQSPGRGLEWVSSISGSGDKKYYADSVKGRFTISRDNSKNTLYLQMNGLRAEDPAVYYCAKALYSYSSAYRDVFDIWGQGTRVTVSS
chain 2: QSALTQPASVSGSPGQSITISCTGTSSDVGNYNLVSWYQQHPGKAPKLMIYEVSKRPSGVSNRFFASKSDNTASLTISGLQTEDEADYYCCSYASSGTYYVFGTGTRVTVL
B6: BD58-0588 (protein)
chain 1: QITLNESGPTLVKPTQTLTLTCTFSGFSLNTIGVGVGWIRQPPGKALEWLALIYWDDDKRYSPSLKRRLTITKDTSKNQVVLTMTSMDPADTATYYCATLGGYFDWLSWGYWGQGTLVTVSS
chain 2: QSVLTQPPSASGTPGQRVTICCSGNYSNIGSNFVYWYQQLPGAAPKPLIYRNNQRPSGVPDRFSGSKSGTSASLAISGLRSEDEADYYCAAWDDSLNAWVFGRGTKVTVL

These binders were tested against SARS-CoV-2 Omicron BA.1 spike pseudovirus (assay: pseudovirus neutralization IC50; higher = weaker neutralization).
Description: (§1)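 Single-round VSV luciferase pseudovirus mixed with antibody dilutions for 1 h and put on Huh-7 cells for about a day; IC50 from the dose curve.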
With B1 the “pseudovirus neutralization IC50” value was greater than 10 µg/mL.
With B2 the “pseudovirus neutralization IC50” value was greater than 10 µg/mL.
For B3, the “pseudovirus neutralization IC50” value was greater than 10 µg/mL.
With B4 the “pseudovirus neutralization IC50” value was greater than 10 µg/mL.
For B5, the “pseudovirus neutralization IC50” value was greater than 10 µg/mL.
B6 was tested, and the “pseudovirus neutralization IC50” value was 0.0349 µg/mL.

The binders below were run against SARS-CoV-2 Omicron BA.2 spike pseudovirus in the same assay as above.
Description: as §1
With B1 the “pseudovirus neutralization IC50” value was greater than 10 µg/mL.
In the case of B2, the “pseudovirus neutralization IC50” value is reported as greater than 10 µg/mL.
In the case of B3, the “pseudovirus neutralization IC50” value is reported as greater than 10 µg/mL.
In the case of B4, the “pseudovirus neutralization IC50” value is reported as greater than 10 µg/mL.
For B5, the “pseudovirus neutralization IC50” value was greater than 10 µg/mL.
In the case of B6, the “pseudovirus neutralization IC50” value is reported as 0.00823 µg/mL.

What follows are binders tested against SARS-CoV-2 Omicron BA.2.75 spike pseudovirus in the same assay as above.
Description: as §1
In the case of B1, the “pseudovirus neutralization IC50” value is reported as greater than 10 µg/mL.
B2 was tested, and the “pseudovirus neutralization IC50” value was greater than 10 µg/mL.
In the case of B3, the “pseudovirus neutralization IC50” value is reported as greater than 10 µg/mL.
For B4, the “pseudovirus neutralization IC50” value was greater than 10 µg/mL.
For B5, the “pseudovirus neutralization IC50” value was greater than 10 µg/mL.
For B6, the “pseudovirus neutralization IC50” value was 0.0733 µg/mL.

What follows are binders tested against SARS-CoV-2 Omicron BA.5 spike pseudovirus in the same assay as above.
Description: as §1
With B1 the “pseudovirus neutralization IC50” value was greater than 10 µg/mL.
B2 was tested, and the “pseudovirus neutralization IC50” value was greater than 10 µg/mL.
For B3, the “pseudovirus neutralization IC50” value was greater than 10 µg/mL.
With B4 the “pseudovirus neutralization IC50” value was greater than 10 µg/mL.
In the case of B5, the “pseudovirus neutralization IC50” value is reported as greater than 10 µg/mL.
In the case of B6, the “pseudovirus neutralization IC50” value is reported as 0.0055 µg/mL.

What follows are binders tested against SARS-CoV-2 Omicron BQ.1.1 spike pseudovirus in the same assay as above.
Description: as §1
In the case of B1, the “pseudovirus neutralization IC50” value is reported as greater than 10 µg/mL.
For B2, the “pseudovirus neutralization IC50” value was greater than 10 µg/mL.
B3 was tested, and the “pseudovirus neutralization IC50” value was greater than 10 µg/mL.
B4 was tested, and the “pseudovirus neutralization IC50” value was greater than 10 µg/mL.
B5 was tested, and the “pseudovirus neutralization IC50” value was greater than 10 µg/mL.
B6 was tested, and the “pseudovirus neutralization IC50” value was greater than 10 µg/mL.

Each binder was assayed against SARS-CoV-2 Omicron XBB spike pseudovirus in the same assay as above.
Description: as §1
With B1 the “pseudovirus neutralization IC50” value was greater than 10 µg/mL.
In the case of B2, the “pseudovirus neutralization IC50” value is reported as greater than 10 µg/mL.
B3 was tested, and the “pseudovirus neutralization IC50” value was greater than 10 µg/mL.
B4 was tested, and the “pseudovirus neutralization IC50” value was greater than 10 µg/mL.
For B5, the “pseudovirus neutralization IC50” value was greater than 10 µg/mL.
For B6, the “pseudovirus neutralization IC50” value was greater than 10 µg/mL.

The binders below were run against SARS-CoV-2 early D614G spike pseudovirus in the same assay as above.
Description: as §1
In the case of B1, the “pseudovirus neutralization IC50” value is reported as greater than 10 µg/mL.
B2 was tested, and the “pseudovirus neutralization IC50” value was greater than 10 µg/mL.
For B3, the “pseudovirus neutralization IC50” value was greater than 10 µg/mL.
For B4, the “pseudovirus neutralization IC50” value was greater than 10 µg/mL.
In the case of B5, the “pseudovirus neutralization IC50” value is reported as greater than 10 µg/mL.
In the case of B6, the “pseudovirus neutralization IC50” value is reported as greater than 10 µg/mL.
